For orientation: MIC means the smallest concentration in the dilution series that meets the test's criterion for growth inhibition. The low end stands for a more susceptible organism, the high end for a less susceptible organism.

From DBAASP come the findings set out here.

Structures are written as SMILES. Some results are limits rather than exact numbers.

The test system of this test is Botrytis cinerea. Description: ≥ marks a high value that may be exact or a test limit, other limits are often not marked, values filed in µg/mL are converted to µM.

`CC[C@H](C)[C@H](NC(=O)CNC(=O)[C@H](C)NC(=O)[C@@H]1CCCN1C(=O)CNC(=O)[C@H](C)NC(=O)[C@H](CC(C)C)NC(=O)[C@H](Cc1ccc(O)cc1)NC(=O)[C@H](CCCCN)NC(=O)[C@H](CC(C)C)NC(=O)[C@@H](NC(=O)[C@H](CCCCN)NC(=O)[C@H](CCCCN)NC(=O)[C@H](Cc1ccccc1)NC(=O)[C@H](CC(C)C)NC(=O)[C@H](CCCCN)NC(=O)[C@@H](N)CCCCN)[C@@H](C)CC)C(=O)NCC(=O)N[C@@H](CCCCN)C(=O)N[C@@H](Cc1ccccc1)C(=O)N[C@@H](CC(C)C)C(=O)N[C@@H](Cc1cnc[nH]1)C(=O)N[C@@H](CO)C(=O)N[C@@H](C)C(=O)N[C@@H](CCCCN)C(=O)N[C@@H](CCCCN)C(=O)N[C@@H](CC(=O)O)C(=O)N[C@@H](CCC(=O)O)C(=O)N[C@@H](CC(C)C)C(=O)O` [KKLFKKILKYLAGPAGIGKFLHSAKKDEL]: the MIC is at least 61.2 µM.
